Results of unrelated studies side by side (data: NIAID ChemDB).

ICn is the concentration giving n% inhibition.

compound,kind,target,tested at,read by,measure,agent,cells,strain,mutations,result
CCOc1ccc2ccccc2c1C(=O)Nc1nnc(NCc2ccc3c(c2)OCO3)s1,target,Polymerase,,,IC50,Human cytomegalovirus,,,,<25 µM
Nc1cc(Cl)c(S(=O)(=O)[O-])cc1Cl.[Na+],culture,,,,MIC,Mycobacterium tuberculosis,,H37Rv,,>100 µg/mL
CCC(C)(C)NCCNCC(c1ccccc1)c1ccccc1,culture,,,,MIC,Mycobacterium tuberculosis,,,,12.5 µM
COC(=O)c1nc(Cl)nc(Cl)c1N,culture,,,BACTEC,MIC bound,Mycobacterium tuberculosis,,H37Rv,,>12.5 µg/mL
CCCCCCCC/C=C/CCCCCCCC(=O)Nc1nnc(NCc2ccc(S(N)(=O)=O)cc2)s1,target,Polymerase,,,IC50,Human cytomegalovirus,,,,<25 µM
COc1ccccc1C(=O)CC(=O)Nc1ccc(NS(=O)(=O)c2ccc(C)cc2)cc1Cl,culture,,,,MIC,Mycobacterium tuberculosis,,H37Rv,,>100 µg/mL
CCC(CC)O[C@@H]1C=C(C(=O)O)C[C@H](N)[C@H]1NC(C)=O,culture,,,,EC50,Influenza A virus,MDCK,H1N1 A/Bayern/09/95,,2.7 µM
C[C@H](NCCNCc1ccc(C(F)(F)F)cc1)[C@H](O)c1ccc(O)c(O)c1,culture,,,,MIC,Mycobacterium tuberculosis,,,,25 µM
CC(=O)C(=N\O)/C(C)=N/NC(=O)c1ccncc1,culture,,,resazurin,MIC,Mycobacterium tuberculosis,,H37Rv,,12.5 µg/mL
Cl.c1ccc(N(CCCN2CCCCC2)CCCN2CCCCC2)nc1,culture,,,,MIC,Mycobacterium tuberculosis,,H37Rv,,>100 µg/mL
O=c1c(O)c(-c2ccc(O)c(O)c2)oc2c(O[C@@H]3O[C@H](CO)[C@@H](O)[C@H](O)[C@H]3O)c(O)cc(O)c12,culture,,,BACTEC,MIC bound,Mycobacterium tuberculosis,,H37Rv,,>12.5 µg/mL
Clc1ccc(N2CCN(c3cncc(-c4ccoc4)n3)CC2)cc1,target,UL97 kinase,10 µM,,inhibition,Cytomegalovirus,,,,>15%
Nc1ccc([N+](=O)[O-])cc1O,culture,,,,MIC,Mycobacterium tuberculosis,,H37Rv,,100 µg/mL
CCOC(=O)C(NC(=O)c1ccccc1)(N1CCN(c2cc3c(cc2F)c(=O)c(C(=O)O)cn3C2CC2)CC1)C(F)(F)F,culture,,6.25 µg/mL,resazurin,inhibition,Mycobacterium tuberculosis,,H37Rv,,99%
OCc1ccc(-c2cncc(N3CCN(c4cccc(Cl)c4)CC3)n2)cc1,target,UL97 kinase,1 µM,,inhibition,Cytomegalovirus,,,,<50%
FC(F)(F)c1ccc(CNCCNCCc2ccc(Cl)cc2Cl)cc1,culture,,,,MIC,Mycobacterium tuberculosis,,,,50 µM
CSc1ccc(-c2cncc(N3CCN(c4cccc(C)c4)C(C)C3)n2)cc1,target,UL97 kinase,,,IC50,Cytomegalovirus,,,,<100 µM
CC(Oc1ccccc1)C(=O)O,culture,,,,MIC,Mycobacterium tuberculosis,,H37Rv,,>100 µg/mL
Fc1ccc(N2CCCCC2)c(NC(=S)c2ccncc2)c1,host protein,JAK2,10 µM,kinase activity,inhibition,,,,,-5%
c1ccc(Nc2nc(Nc3ccccc3)n(-c3ccccc3)n2)cc1,culture,,,,MIC,Mycobacterium tuberculosis,,H37Rv,,25 µg/mL
O=C(Nc1nnc(NCC2CCCCC2)s1)c1ccc(F)cc1F,target,Polymerase,,,IC50,Human cytomegalovirus,,,,>25 µM
CCCC(C)c1ccc(Nc2ccc3c4c2C(=O)c2ccccc2-c4c(C(=O)OCC)c(=O)n3C)c(S(=O)(=O)O)c1.N,culture,,,,MIC,Mycobacterium tuberculosis,,H37Rv,,50 µg/mL
S=C([S-])N(Cc1ccccc1)CN(C(=S)[S-])c1ccccc1.[Na+].[Na+],culture,,12.5 µg/mL,BACTEC,inhibition,Mycobacterium tuberculosis,,H37Rv,,27%
Clc1ccc(-c2cncc(N3CCN(c4ccncc4)CC3)n2)cc1,target,UL97 kinase,1 µM,,inhibition,Cytomegalovirus,,,,<50%
O=C(c1ccccc1)c1ccc(Br)s1,culture,,,,MIC,Mycobacterium tuberculosis,,H37Rv,,>100 µg/mL
O=C1C(=O)N(C23CC4CC(CC(C4)C2)C3)C(=S)N1c1ccccc1,culture,,,BACTEC,MIC bound,Mycobacterium tuberculosis,,H37Rv,,>12.5 µg/mL
CC(=O)N(C)c1cccc2cccc(S(=O)(=O)O)c12,culture,,,,MIC,Mycobacterium tuberculosis,,H37Rv,,>100 µg/mL
COc1ccccc1N1CCN(c2cncc(-c3ccc(N(C)C)cc3)n2)CC1,target,UL97 kinase,10 µM,,inhibition,Cytomegalovirus,,,,>15%
O=C(Nc1nnc(NCCc2c[nH]c3ccccc23)s1)c1ccc(I)cc1,target,Polymerase,,,IC50,Human cytomegalovirus,,,,>25 µM
C=CCc1ccc(OC)c(OC)c1,culture,,,turbidity,MIC90,Candida parapsilosis,,218,,350 µg/mL
COc1ccc(Br)cc1Br,culture,,,,MIC,Mycobacterium tuberculosis,,H37Rv,,>100 µg/mL
c1ccc2c(c1)nnn1c3cnccc3nc21,culture,,,,MIC,Mycobacterium tuberculosis,VERO,H37Rv,,1.56 µg/mL
CCCCC(CC)CN1CN(CC(CC)CCCC)CC(C)(NCCNCCCOCC)C1,culture,,,,MIC,Mycobacterium tuberculosis,,,,12.5 µM
O=C1C[C@@H]2[C@@H](c3ccccc3)[C@@H]3C(=O)c4ccccc4NC(=O)[C@H]3[C@]2(O)c2ccccc2N1,culture,,,BACTEC,MIC bound,Mycobacterium tuberculosis,,H37Rv,,>12.5 µg/mL
CC(C)c1ccc2c(c1)CC[C@H]1[C@](C)(CNCCNCc3cccc4ccccc34)CCC[C@]21C,culture,,,,MIC,Mycobacterium tuberculosis,,,,50 µM
O=C1c2cccc3c(Br)ccc(c23)C(=O)N1C1CCCCCCCCCCC1,culture,,,resazurin,MIC bound,Mycobacterium tuberculosis,,H37Rv,,>6.25 µg/mL
C=CCN(CCNCCC(c1ccccc1)c1ccccc1)C1CCCC1,culture,,,,MIC,Mycobacterium tuberculosis,,,,25 µM
N#Cc1ncc(C[P+](c2ccccc2)(c2ccccc2)c2ccccc2)nc1N.[Cl-],culture,,,BACTEC,MIC bound,Mycobacterium tuberculosis,,H37Rv,,>12.5 µg/mL
COc1cc(C[C@H](C)[C@H](C)Cc2ccc(O)c(O)c2)ccc1O,culture,,,broth dilution,MIC80,Candida kefyr,,CCC 123-2000,,31.5 µg/mL
O=C(Nc1nnc(NCCCN2CCCC2=O)s1)c1cccc([N+](=O)[O-])c1,target,Polymerase,,,IC50,Human cytomegalovirus,,,,<25 µM
O=c1[nH]c2ccc(CC(=S)N3CCN(c4ccccc4)CC3)cc2s1,culture,,6.25 µg/mL,BACTEC,inhibition,Mycobacterium tuberculosis,,H37Rv,,38%
CC(C)(C)OC(=O)CCNc1nnc(NC(=O)/C=C/c2ccccc2Cl)s1,target,Polymerase,,,IC50,Human cytomegalovirus,,,,>25 µM
CCCCN(CCCC)CCCC(O)c1cc(-c2ccccc2)nc2ccc(OC)cc12.Cl,culture,,,,MIC,Mycobacterium tuberculosis,,H37Rv,,100 µg/mL
NNC(=O)Cc1nc2ccccc2[nH]c1=O,culture,,,BACTEC,MIC bound,Mycobacterium tuberculosis,,H37Rv,,>12.5 µg/mL
O=C1CCCN1CCCNCCNCCCCc1ccccc1,culture,,,,MIC,Mycobacterium tuberculosis,,,,25 µM
O=C(NCO)c1ccccc1,culture,,,,MIC,Mycobacterium tuberculosis,,H37Rv,,>100 µg/mL
CC1(C)N=C(NN=C2CCCCC2)SP1(=O)NNc1ncccn1,culture,,,BACTEC,MIC bound,Mycobacterium tuberculosis,,H37Rv,,>12.5 µg/mL
O=C(/C=C/c1ccccc1)Nc1nnc(NCCN2CCCC2)s1,target,Polymerase,,,IC50,Human cytomegalovirus,,,,>25 µM
O=C([O-])C1C=Cc2oc3ccccc3c2C1.[Na+],culture,,,,MIC,Mycobacterium tuberculosis,,H37Rv,,>100 µg/mL
CC(C)=CCN1Cc2cc(Cl)cc3[nH]c(=S)n(c23)C[C@@H]1C,culture,,,,EC95,HIV-1,MT-4,,RT-K70R Y181C,>3 µM
NCCc1ccc(O)cc1,culture,,,,MIC,Mycobacterium tuberculosis,,H37Rv,,1600 µg/mL
COc1ccccc1N1CCN(c2cncc(-c3ccsc3)n2)CC1,target,UL97 kinase,10 µM,,inhibition,Cytomegalovirus,,,,>15%
COc1ccc(NS(=O)(=O)c2ccc(NCc3c4ccccc4nc4ccccc34)cc2)nn1,culture,,,BACTEC,MIC,Mycobacterium tuberculosis,,H37Rv,,≥12.5 µg/mL
CC(NCCNCCc1ccccc1Cl)c1cccc2ccccc12,culture,,,,MIC,Mycobacterium tuberculosis,,,,25 µM
Nc1ccc(C(=O)Nc2ccccc2)c(O)c1,culture,,,,MIC,Mycobacterium tuberculosis,,H37Rv,,>100 µg/mL
O=C(Nc1nnc(NCCNc2ccccc2)s1)c1ccc(S(=O)(=O)F)cc1,target,Polymerase,,,IC50,Human cytomegalovirus,,,,>25 µM
C1CCCC(NCCNC2C3CC4CC(C3)CC2C4)CCC1,culture,,,,MIC,Mycobacterium tuberculosis,,,,25 µM
CCOC(=O)N1N=C(c2ccccc2)OC2(N3CCCC3)CCC(C(C)(C)C)CC12,culture,,,BACTEC,MIC bound,Mycobacterium tuberculosis,,H37Rv,,>12.5 µg/mL
CCCCCCCC/C=C/CCCCCCCC(=O)Nc1nnc(NCc2cccc3ccccc23)s1.CCCCCCCC/C=C/CCCCCCCC(=O)Nc1nnc(NCc2cccc3ccccc23)s1,target,Polymerase,,,IC50,Human cytomegalovirus,,,,<25 µM
COP(=O)(/C=C/c1cc(C(=O)OCc2ccccc2)n(S(=O)(=O)c2ccccc2)c1)OC,culture,,,BACTEC,MIC bound,Mycobacterium tuberculosis,,H37Rv,,>12.5 µg/mL
Clc1cccc(-c2cncc(N3CCN(c4ccccn4)CC3)n2)c1,target,UL97 kinase,1 µM,,inhibition,Cytomegalovirus,,,,<50%
CCN(CC)Cc1ccc([N+](=O)[O-])cc1,culture,,,,MIC,Mycobacterium tuberculosis,,H37Rv,,>100 µg/mL
CCOC(=O)c1ccc(OCCC2CCN(c3ccc(C)nn3)CC2)cc1,culture,,,neutral red,EC50,Rhinovirus,KB,181-CV16 (ICAM-1 receptor group 12),,0.054 µM
O=C(Nc1ccc(C(F)(F)F)cc1[N+](=O)[O-])C(=O)Nn1c(=S)[nH]c2ccccc2c1=O,culture,,,BACTEC,MIC bound,Mycobacterium tuberculosis,,H37Rv,,>12.5 µg/mL
CCN1CCCC(COC(=O)c2ccc(N)cc2)C1,culture,,,,MIC,Mycobacterium tuberculosis,,H37Rv,,100 µg/mL
COC(=O)C1(C)C=CC(=O)C2(C)C1C(O)C1OC3CC(c4ccoc4)C(C)=C3C1(C)C2CC(=O)O,culture,,12.8 µg/mL,BACTEC,inhibition,Mycobacterium tuberculosis,,H37Rv,,24%
COc1cccc(-c2cncc(N3CCN(c4cccc(Cl)c4)CC3)n2)c1OC,target,UL97 kinase,10 µM,,inhibition,Cytomegalovirus,,,,>15%
OCCNCCOc1ccccc1-c1ccccc1,culture,,,,MIC,Mycobacterium tuberculosis,,H37Rv,,100 µg/mL
NC1=NS(=O)(=O)Nc2nc(-c3ccc([N+](=O)[O-])o3)[nH]c21,culture,,,resazurin,MIC bound,Mycobacterium tuberculosis,,H37Rv,,>6.25 µg/mL
O=Cc1ccccc1O,culture,,,,MIC,Mycobacterium tuberculosis,,H37Rv,,100 µg/mL
CCCCCCCCCCCCCCCCOc1ccc(S(=O)(=O)Nc2cc(C(=O)OC)cc(C(=O)OC)c2)cc1[N+](=O)[O-],culture,,,BACTEC,MIC bound,Mycobacterium tuberculosis,,H37Rv,,>12.5 µg/mL
O=S(=O)([O-])CCS(=O)(=O)[O-].[Na+].[Na+],culture,,,,MIC,Mycobacterium tuberculosis,,H37Rv,,>100 µg/mL
C#CC[C@@H](C(=O)N[C@H](/C=C/C(=O)OCC)C[C@@H]1CCNC1=O)n1cccc(NC(=O)c2cc(C)on2)c1=O,culture,,0.941 µM,cytopathic effect / XTT,inhibition,Rhinovirus,H1-HELA,Serotype 68,,90%

The first 11 rows once more:

compound,kind,target,tested at,read by,measure,agent,cells,strain,mutations,result
CCOc1ccc2ccccc2c1C(=O)Nc1nnc(NCc2ccc3c(c2)OCO3)s1,target,Polymerase,,,IC50,Human cytomegalovirus,,,,<25 µM
Nc1cc(Cl)c(S(=O)(=O)[O-])cc1Cl.[Na+],culture,,,,MIC,Mycobacterium tuberculosis,,H37Rv,,>100 µg/mL
CCC(C)(C)NCCNCC(c1ccccc1)c1ccccc1,culture,,,,MIC,Mycobacterium tuberculosis,,,,12.5 µM
COC(=O)c1nc(Cl)nc(Cl)c1N,culture,,,BACTEC,MIC bound,Mycobacterium tuberculosis,,H37Rv,,>12.5 µg/mL
CCCCCCCC/C=C/CCCCCCCC(=O)Nc1nnc(NCc2ccc(S(N)(=O)=O)cc2)s1,target,Polymerase,,,IC50,Human cytomegalovirus,,,,<25 µM
COc1ccccc1C(=O)CC(=O)Nc1ccc(NS(=O)(=O)c2ccc(C)cc2)cc1Cl,culture,,,,MIC,Mycobacterium tuberculosis,,H37Rv,,>100 µg/mL
CCC(CC)O[C@@H]1C=C(C(=O)O)C[C@H](N)[C@H]1NC(C)=O,culture,,,,EC50,Influenza A virus,MDCK,H1N1 A/Bayern/09/95,,2.7 µM
C[C@H](NCCNCc1ccc(C(F)(F)F)cc1)[C@H](O)c1ccc(O)c(O)c1,culture,,,,MIC,Mycobacterium tuberculosis,,,,25 µM
CC(=O)C(=N\O)/C(C)=N/NC(=O)c1ccncc1,culture,,,resazurin,MIC,Mycobacterium tuberculosis,,H37Rv,,12.5 µg/mL
Cl.c1ccc(N(CCCN2CCCCC2)CCCN2CCCCC2)nc1,culture,,,,MIC,Mycobacterium tuberculosis,,H37Rv,,>100 µg/mL
O=c1c(O)c(-c2ccc(O)c(O)c2)oc2c(O[C@@H]3O[C@H](CO)[C@@H](O)[C@H](O)[C@H]3O)c(O)cc(O)c12,culture,,,BACTEC,MIC bound,Mycobacterium tuberculosis,,H37Rv,,>12.5 µg/mL

An empty or dashed field is not shown. MIC bound: limit read from a one-dose screen. ECn is the concentration giving n% inhibition of infection, replication or growth. Inhibition is in % at the dose shown (toxicity tests: loss of growth or viability). MIC50, MIC90 and the like: level of inhibition, or share of isolates inhibited. Conditions beyond the fields shown may differ between rows.